Measurements from the supplement of paper PMC9931576.
Human monoclonal antibodies against the spike receptor-binding domain (heavy:light variable regions). IC50 against pseudoviruses bearing the spike of naturally observed variants; lower = stronger; >10 µg/ml means not reached at the top dose. No active / inactive call. The stated detection limit is 0.0005 µg/ml; values near or below 0.001 µg/ml lie at the floor of the assay.

B1: BD56-269 (protein)
chain 1: QVQLVQSGAEVKKPGSSVKVSCKASGGTFSSYAISWVRQAPGQGLEWMGGIIPIFGTSSYAQKFQGRVTITADEFTSTAYMGLSSLRSEDTAVYYCARGPVGPTVVTTFEYWGQGTLVIVSS
chain 2: DIQMTQSPSSLSASVGDRVTITCQASQDISNYLNWYQQKPGKAPELLIYDASNLETGVPSRFSGSGSGTDFTFTISSLQPEDLATYYCQQYDNLPLTFGGGTKVEIK
B2: BD56-829 (protein)
chain 1: QVQLVQSGAEVKKPGSSVKVSCKASGGTFSSYAISWVRQAPGQGLEWMGGIIPIFGTANYAQKFQGRVTITADESTSTAYMELSSLRSEDTAVYYCARSTRMVATSRFDYWGQGTLVTVSS
chain 2: DIQMTQSPSSLSASVGDRVTITCQASQDISNYLNWYQQKPGKAPKLLIYDASNLETGVPSRFSGSGSGTDFTFTISSLQPEDIATYYCQQYDNLITFGQGTRLEIK
B3: BD56-832 (protein)
chain 1: EVQLVESGGGLVQPGGSLRLSCAASGFTVSSNYMSWVRQAPGKGLEWVSLIYAGGTTYYADSVKGRFTISRGNSKNTLYLQMNSLRAEDTAVYYCAREGSPTGDAGLAFDIWGQGTMVTVSS
chain 2: DIQMTQSPSSLSASVGDRVTITCQASQDINNYLNWYQQKPGKAPQLLIYDASNLETGVPSRFSGSGSGTDFTFTISSLQPEDIATYYCQQYDNLRTFGGGTKVEIK
B4: BD56-833 (protein)
chain 1: QVQLVESGGGVVQPGRSLRLSCAASGFTFSYYGMHWVRQAPGKGLEWVAVISNHGSSEYYADSVKGRFTISRDNSKNTLYLQMNSLRAEDTAVYYCARDGEDIVVVPAAPPDYYYYYGMDVWGQGTTVTVSS
chain 2: SSELTQDPAVSVALGQTVRITCQGDSLRSYYASWYQQKPGQAPVLVIYGKNNRPSGIPDRFSGSSSGNTASLTITGAQAEDEADYYCNSRDSSGNPHVVFGGGTKLTVL
B5: BD56-824 (protein)
chain 1: QVQLVQSGAEVKKPGSSVKVSCQASGGTFSSYAISWVRQAPGQGLEWMGGVIPILATANYAQKFQGRVTITADESTSTAYMELSSLRSEDTAVYYCAQRSEMASVWGQGTLVTVSS
chain 2: SYELTQPPSVSVSPGQTASITCSGNKLGDKYAYWYQQKPGQSPVLVIYEDSERPSGIPERFSGSNSGNTATLTISGTQAMDEADYYCQAWDSSTEVFGGGTKLTVL

Molecular target: SARS-CoV-2 Omicron BA.1 spike pseudovirus
Assay: pseudovirus neutralization IC50; higher = weaker neutralization
Experimental: (§1)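 Single-round VSV luciferase pseudovirus mixed with antibody dilutions for 1 h and put on Huh-7 cells for about a day; IC50 from the dose curve.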

Binder	pseudovirus neutralization IC50 [µg/mL]
B1	0.00224
B2	0.0694
B3	0.00254
B4	0.00212
B5	0.00174

Molecular target: SARS-CoV-2 Omicron BA.2 spike pseudovirus
Assay: as above
Experimental: as §1

Binder	pseudovirus neutralization IC50 [µg/mL]
B1	0.0163
B2	0.0816
B3	0.00253
B4	0.00229
B5	0.000886

Molecular target: SARS-CoV-2 Omicron BA.2.75 spike pseudovirus
Assay: as above
Experimental: as §1

Binder	pseudovirus neutralization IC50 [µg/mL]
B1	0.0895
B2	0.12
B3	3.74
B4	0.448
B5	0.000927

Molecular target: SARS-CoV-2 Omicron BA.2.75.2 spike pseudovirus
Assay: as above
Experimental: as §1

Binder	pseudovirus neutralization IC50 [µg/mL]
B1	0.46
B2	> 10
B3	4.5
B4	0.955
B5	> 10

Molecular target: SARS-CoV-2 Omicron BA.5 spike pseudovirus
Assay: as above
Experimental: as §1

Binder	pseudovirus neutralization IC50 [µg/mL]
B1	> 10
B2	> 10
B3	0.0118
B4	> 10
B5	> 10

Molecular target: SARS-CoV-2 Omicron BM.1.1.1 spike pseudovirus
Assay: as above
Experimental: as §1

Binder	pseudovirus neutralization IC50 [µg/mL]
B1	> 10
B2	> 10
B3	6.44
B4	> 10
B5	> 10

Molecular target: SARS-CoV-2 Omicron BQ.1.1 spike pseudovirus
Assay: as above
Experimental: as §1

Binder	pseudovirus neutralization IC50 [µg/mL]
B1	> 10
B2	> 10
B3	> 10
B4	> 10
B5	> 10

Molecular target: SARS-CoV-2 Omicron BR.2 spike pseudovirus
Assay: as above
Experimental: as §1

Binder	pseudovirus neutralization IC50 [µg/mL]
B1	> 10
B2	> 10
B3	3.97
B4	> 10
B5	> 10

Molecular target: SARS-CoV-2 Omicron CA.1 spike pseudovirus
Assay: as above
Experimental: as §1

Binder	pseudovirus neutralization IC50 [µg/mL]
B1	> 10
B2	> 10
B3	4.79
B4	> 10
B5	> 10

Molecular target: SARS-CoV-2 Omicron XBB spike pseudovirus
Assay: as above
Experimental: as §1

Binder	pseudovirus neutralization IC50 [µg/mL]
B1	> 10
B2	> 10
B3	5.16
B4	> 10
B5	> 10

Molecular target: SARS-CoV-2 early D614G spike pseudovirus
Assay: as above
Experimental: as §1

Binder	pseudovirus neutralization IC50 [µg/mL]
B1	> 10
B2	> 10
B3	> 10
B4	> 10
B5	> 10
